Compound potency records, mixed from different reports. Data source: NIAID ChemDB in PubChem.

All rows: whole-cell or culture tests; species: Mycobacterium tuberculosis

For "inactive" no cut-off is given. An empty or dashed field is not shown. Percent inhibition refers to the dose given; in toxicity tests it is the harm to the cells. MIC bound comes from a single tested concentration. MIC50, MIC90 and the like: level of inhibition, or share of isolates inhibited. Conditions beyond the fields shown may differ between rows.

compound,strain or isolate,method,endpoint,tested at,value
CCCCCCCCCCSc1nc(SCCCCCCCCCC)c2ncn(COCCO)c2n1,H37Rv,BACTEC,inhibition,6.25 µg/mL,0%
CC(C)(C)C1CCc2onc(C(=O)Nc3cnn(Cc4ccc(F)cc4F)c3)c2C1,Rv3602c,resazurin,MIC,-,>128 µM
CC1=NN(c2ccc3c(c2)Nc2ccccc2S3)C2NC(=S)NC(c3ccccc3[N+](=O)[O-])C12,H37Rv,BACTEC / broth dilution / radiometric,MIC,-,<6.25 µg/mL
c1ccc(-c2ccc(CNc3ccc(-n4ccnc4)cc3)cc2)cc1,103471,-,MIC,-,8 µg/mL
O=c1[nH]c2cc(C(F)(F)F)ccc2nc1C(F)(F)F,-,-,inhibition,12.5 µg/mL,inactive
CCOC(=O)N1CCN(c2ccc(C3CC(c4ccc([N+](=O)[O-])o4)=NO3)cc2)CC1,UT29,-,MIC,-,0.012 µg/mL
COc1ccc2nccc(Nc3ccc(S(=O)(=O)c4ccc(NC(C)=O)cc4)cc3)c2c1,Strain 2 (MDR),-,MIC,-,0.8 µg/mL
NNC(=O)c1ccncc1,Clinical isolate 4,-,MIC,-,0.1 µg/mL
O=Cc1cccc(/C=N/NC(=O)c2ccncc2)c1,katG (S315T),BACTEC,MIC99,-,>39.5 µM
Nc1nc(Oc2ccccc2)c2[nH]cnc2n1,H37Rv,BACTEC,inhibition,6.25 µg/mL,0%
CC(C)(C)OC(=O)c1ccc(Cn2cc(NC(=O)c3noc4c3CC(C(C)(C)C)CC4)cn2)cc1,Rv3602c,resazurin,MIC,-,>128 µM
Clc1ccc(CNc2cccc(N3CCOCC3)c2)cc1,103471,-,MIC,-,>8 µg/mL
CCCCCCCCCCCCCCCC(=O)N(O)CCCC[C@@H](NC(=O)[C@@H]1COC(c2ccccc2O)=N1)C(=O)NCCC(=O)NC1CCCCN(O)C1=O,H37Rv,-,MIC,-,>12.5 µg/mL
NNC(=O)c1ccncc1,188 strains,-,MIC50,-,0.06 µg/mL
c1ccc(-c2ccc(CNc3ccccc3N3CCOCC3)cc2)cc1,103471,-,MIC,-,>16 µg/mL
CC1=NN(c2ccc3c(c2)Nc2ccccc2S3)C2NC(=S)NC(c3ccc([N+](=O)[O-])cc3)C12,H37Rv,BACTEC / broth dilution / radiometric,MIC,-,>6.25 µg/mL
CC(C)(C)C1CCc2onc(C(=O)O)c2C1,Rv3602c,-,MIC,-,>128 µM
CC[C@H]1OC(=O)[C@H](C)C(=O)[C@H](C)[C@@H](O[C@@H]2O[C@H](C)C[C@H](N(C)C)[C@H]2O)[C@](C)(OC)C[C@@H](C)C(=O)[C@H](C)[C@H]2N(NCCCc3ccnc4ccccc34)C(=O)O[C@]12C,Isolate 900216,-,MIC,-,40 µg/mL
CC(=O)NC[C@H]1CN(c2ccc(N3CCOCC3)c(F)c2)C(=O)O1,158 strains,-,MIC,-,>16 µg/mL
Cc1ccc([N+](=O)[O-])cc1NC(=O)Nc1ccc(Cl)c(Cl)c1,-,broth dilution / turbidity,MIC90,-,0.4 µg/mL
CC1=NN(c2ccc3c(c2)Nc2ccccc2S3)C2NC(=S)NC(c3ccc(Cl)cc3)C12,H37Rv,BACTEC / broth dilution / radiometric,MIC,-,>6.25 µg/mL
O=c1[nH]c2cc([N+](=O)[O-])ccc2nc1CBr,-,-,inhibition,12.5 µg/mL,15%
COc1ccc(C2NC(=S)NC3C2C(C)=NN3c2ccc3c(c2)Nc2ccccc2S3)cc1,H37Rv,BACTEC / broth dilution / radiometric,MIC,-,>6.25 µg/mL
CCSN(SCC)C(=S)c1ncnc(NC2CC2)c1[N+](=O)[O-],-,-,MIC,-,20.8 µg/mL
COC(=O)c1ccc(Cn2cc(NC(=O)c3noc4c3CC(C(C)(C)C)CC4)cn2)cc1,Rv3602c,-,MIC,-,>128 µM
c1ccc2c(c1)Nc1ccccc1S2,H37Rv,-,MIC,-,128 µg/mL
COc1ccc2nc(-c3ccccc3)cc(NNC(=O)c3ccncc3)c2c1,Strain 1 (MDR),-,MIC,-,5 µg/mL
CC(C)(C)C1CCc2onc(C(=O)Nc3cnn(Cc4ccc(C(=O)NCc5ccccc5)cc4)c3)c2C1,Rv3602c,-,MIC,-,>128 µM
CNC(=O)CC1NC(=O)c2nc(sc2COC)C(C(C)C)NC(=O)c2csc(n2)-c2ccc(-c3nc(C4=NC(C(=O)N5CCCC5C(N)=O)CO4)cs3)nc2-c2csc(n2)-c2csc(n2)C(C(O)c2ccccc2)NC(=O)CNC(=O)c2nc1sc2C,-,-,MIC,-,1 µg/mL
O=[N+]([O-])c1ccc(C2=NOC(c3ccc(N4CCN(Cc5ccccc5)CC4)cc3)C2)o1,UT30,-,MIC,-,0.003 µg/mL
CC[N+]([O-])(CC)CCNc1ccc(CO)c2sc3ccccc3c(=O)c12.O=CO,H37Rv,BACTEC,MIC bound,-,>12.5 µg/mL
O=C(O)c1cn(C2CC2)c2c(Cl)c(N3C[C@@H]4CCCN[C@@H]4C3)c(F)cc2c1=O,Susceptible,-,MIC50,-,0.06 µg/mL
CC(C)(C)C1CCc2onc(C(=O)Nc3cnn(Cc4ccc(Cl)cc4)c3)c2C1,Rv3602c,-,MIC,-,>128 µM
COc1cccc2c(NNC(=O)c3ccncc3)cc(-c3ccccc3)nc12,Strain 2 (MDR),-,MIC,-,4 µg/mL
Nc1ccc(C(=O)O)c(O)c1,Clinical isolate 8,-,MIC,-,5 µg/mL
CC(CN1c2ccccc2Sc2ccc(Cl)nc21)N(C)C,H37Rv,-,MIC,-,64 µg/mL
Cc1cc(O)c2c(c1)C(=O)C(c1c(C)cc3c(c1O)C(=O)C=CC3=O)=CC2=O,CCK028469V isoniazid- rifampin-resistant,-,MIC,-,100 µg/mL
CCCCCCCCCCSc1nc(N)nc2c1ncn2CC(=O)N[C@H](CO)C(=O)OC,H37Rv,BACTEC,inhibition,6.25 µg/mL,0%
Cc1ccc2nc(-c3ccccc3)cc(NNC(=O)c3ccncc3)c2c1,Strain 2 (MDR),-,MIC,-,1 µg/mL
COC(=O)CC[C@@H](C)[C@H]1CCC2C3C(C[C@H](O)[C@@]21C)[C@@]1(C)CC[C@H](n2cc(CNCCCCNc4ccnc5cc(Cl)ccc45)nn2)C[C@H]1C[C@H]3O,H37Rv,resazurin,MIC90,-,17 µM
CC(C)(C)C1CCc2onc(C(=O)Nc3cnn(Cc4ccc(C(=O)O)cc4)c3)c2C1,Rv3602c,-,MIC,-,>128 µM
CO[C@H]1/C=C/O[C@@]2(C)Oc3c(C)c(O)c4c(O)c(c(/C=N/N5CCN(C)CC5)c(O)c4c3C2=O)NC(=O)/C(C)=C\C=C\[C@H](C)[C@H](O)[C@@H](C)[C@@H](O)[C@@H](C)[C@H](OC(C)=O)[C@@H]1C,Clinical isolate 9,-,MIC,-,0.1 µg/mL
O=C(Nc1ccc(N2CCSCC2)cc1)c1ccc(-c2ccccc2)cc1,103471,-,MIC,-,>16 µg/mL
O=C(NNc1cc(-c2ccccc2)nc2ccccc12)c1ccncc1,Strain 1 (MDR),-,MIC,-,1 µg/mL
CN1CCN(CCCN2c3ccccc3Sc3ccc(Cl)cc32)CC1,H37Rv,-,MIC,-,16 µg/mL
COc1c(N2CCNC(C)C2)c(F)cc2c(=O)c(C(=O)O)cn(C3CC3)c12,Quinolone-susceptible isolates,-,MIC90,-,0.39 µg/mL
Cc1cc(C)c(Nc2cc(C)nc(Cl)n2)c(C)c1,H37Ra,-,MIC,-,>50 µg/mL
O=c1[nH]c2cc(C(F)(F)F)ccc2nc1CBr,-,-,inhibition,12.5 µg/mL,inactive
CCCCCCCCCCCCCCCC(=O)N(O)CCCC[C@H](NC(=O)C1COC(c2ccccc2O)=N1)C(=O)OC[C@H](NC(=O)OC(C)(C)C)C(=O)NC1CCCCN(O)C1=O,H37Rv,-,MIC,-,>12.5 µg/mL
CC(CN(C)C)CN1c2ccccc2Sc2ccccc21,H37Rv,-,MIC,-,32 µg/mL

5 of the rows above, restated:

CCCCCCCCCCSc1nc(SCCCCCCCCCC)c2ncn(COCCO)c2n1 ; strain or isolate: H37Rv ; method: BACTEC ; endpoint: inhibition ; tested at: 6.25 µg/mL ; value: 0%
Cc1cc(C)c(Nc2cc(C)nc(Cl)n2)c(C)c1 ; strain or isolate: H37Ra ; endpoint: MIC ; value: >50 µg/mL
O=Cc1cccc(/C=N/NC(=O)c2ccncc2)c1 ; strain or isolate: katG (S315T) ; method: BACTEC ; endpoint: MIC99 ; value: >39.5 µM
CC[C@H]1OC(=O)[C@H](C)C(=O)[C@H](C)[C@@H](O[C@@H]2O[C@H](C)C[C@H](N(C)C)[C@H]2O)[C@](C)(OC)C[C@@H](C)C(=O)[C@H](C)[C@H]2N(NCCCc3ccnc4ccccc34)C(=O)O[C@]12C ; strain or isolate: Isolate 900216 ; endpoint: MIC ; value: 40 µg/mL
CCCCCCCCCCSc1nc(N)nc2c1ncn2CC(=O)N[C@H](CO)C(=O)OC ; strain or isolate: H37Rv ; method: BACTEC ; endpoint: inhibition ; tested at: 6.25 µg/mL ; value: 0%